Pooled drug test results. Numbers come from NIAID ChemDB, via PubChem.

All rows: tests in culture; species: HIV-1; measure: EC50

Lines come from different laboratories, so protocols vary.

SMILES,cell line,read by,changes,setting,strain,value
CN1C(c2cccc(Cl)c2Cl)c2ccccc2S1(=O)=O,-,p24 / RT activity,-,-,-,0.039 µM
CC(C)C1=C2C3CCC4[C@@]5(C)CC[C@H](OC(=O)CC(C)(C)C(=O)O)C(C)(C)C5CC[C@@]4(C)[C@]3(C)CC[C@@]2(NC(=O)c2cncs2)CC1=O,MT-2,RT activity,-,30% human serum,IIIB,<0.199 µM
CN1C(c2ccccc2)(C(F)(F)F)c2ccccc2S1(=O)=O,-,p24 / RT activity,-,-,-,0.46 µM
Cc1cn(-c2ccc(CNC[C@H](O)[C@@]34CC[C@]5(C)[C@H](CC[C@@H]6[C@@]7(C)CC[C@H](OC(=O)[C@H]8C[C@@H](C(=O)O)C8(C)C)C(C)(C)[C@@H]7CC[C@]65C)C3=C(C(C)C)C(=O)C4)cc2)cn1,MT-2,p24 / ELISA,-,-,92HT599,<1 µM
CN1C(c2cccc(F)c2)c2ccccc2S1(=O)=O,-,p24 / RT activity,-,-,-,0.173 µM
CCC[C@@]1(CCc2ccccc2)CC(O)=C([C@H](CC)c2cccc(NS(=O)(=O)c3ccc(C(F)(F)F)cn3)c2)C(=O)O1,MT-4,reporter gene,V32I I50V L76V V82I,-,T13632,92 nM
CC(C)C1=C2[C@H]3CC[C@@H]4[C@@]5(C)CC[C@H](OC(=O)[C@H]6C[C@@H](C(=O)O)C6(C)C)C(C)(C)[C@@H]5CC[C@@]4(C)[C@]3(C)CC[C@@]2(CCNC(=O)C(=O)c2ccc(Cl)cc2)CC1=O,MT-2,p24 / ELISA,-,-,92HT599,<1 µM
C[C@H](Cn1cnc2c(N)ncnc21)OCP(=O)(O)O,TZM-bl,-,HX/3AZT + 348,-,-,18 µM
CC(C)C1=C2[C@H]3CC[C@@H]4[C@@]5(C)CC[C@H](OC(=O)[C@H]6C[C@@H](C(=O)O)C6(C)C)C(C)(C)[C@@H]5CC[C@@]4(C)[C@]3(C)CC[C@@]2(CC(=O)NCC2CC2)CC1=O,MT-2,p24 / ELISA,-,-,92HT599,<1 µM
CN1C(c2ccc(Br)cc2)c2ccccc2S1(=O)=O,-,p24 / RT activity,-,-,-,11.02 µM
CC(C)C1=C2C3CCC4[C@@]5(C)CC[C@H](OC(=O)CC(C)(C)C(=O)O)C(C)(C)C5CC[C@@]4(C)[C@]3(C)CC[C@@]2(NC(=O)NC(C)(C)C)CC1=O,MT-2,RT activity,-,30% human serum,IIIB,<0.199 µM
CCCCN1C(c2cccc(Cl)c2)c2ccccc2S1(=O)=O,-,p24 / RT activity,-,-,-,1.35 µM
CC(C)C1=C2[C@H]3CC[C@@H]4[C@@]5(C)CC[C@H](OC(=O)CC(C)(C)C(=O)O)C(C)(C)[C@@H]5CC[C@@]4(C)[C@]3(C)CC[C@@]2(NC(=O)N2CCN(C)CC2)CC1=O,MT-2,RT activity,-,30% human serum,IIIB,<0.199 µM
[2H]C([2H])(CNC(=O)c1ccc(Cl)cc1)NC(=O)C[C@@]12CC[C@]3(C)[C@H](CC[C@@H]4[C@@]5(C)CC[C@H](OC(=O)[C@H]6C[C@@H](C(=O)O)C6(C)C)C(C)(C)[C@@H]5CC[C@]43C)C1=C(C(C)C)C(=O)C2,MT-2,p24 / ELISA,-,-,92HT599,<1 µM
CC(C)C1=C2C3CCC4[C@@]5(C)CC[C@H](OC(=O)CC(C)(C)C(=O)O)C(C)(C)C5CC[C@@]4(C)[C@]3(C)CC[C@@]2(NC(=O)NC(C)(C)c2ccccc2)CC1=O,MT-2,RT activity,-,30% human serum,IIIB,<0.199 µM
CC(C)C1=C2[C@H]3CC[C@@H]4[C@@]5(C)CC[C@H](OC(=O)[C@H]6C[C@@H](C(=O)O)C6(C)C)C(C)(C)[C@@H]5CC[C@@]4(C)[C@]3(C)CC[C@@]2([C@@H](O)CNC(=O)C(C)(C)NC(=O)c2ccc(O[C@@H]3CCOC3)cc2)CC1=O,MT-2,p24 / ELISA,-,-,92HT599,<1 µM
CC(C)C1=C2C3CCC4[C@@]5(C)CC[C@H](OC(=O)CC(C)(C)C(=O)O)C(C)(C)C5CC[C@@]4(C)[C@]3(C)CC[C@@]2(NC(=O)NCc2ccccn2)CC1=O,MT-2,RT activity,-,30% human serum,IIIB,<0.199 µM
CC(C)C1=C2[C@H]3CC[C@@H]4[C@@]5(C)CC[C@H](OC(=O)[C@H]6C[C@@H](C(=O)O)C6(C)C)C(C)(C)[C@@H]5CC[C@@]4(C)[C@]3(C)CC[C@@]2(CC(=O)NCc2nc3ccccc3[nH]2)CC1=O,MT-2,p24 / ELISA,-,-,92HT599,<1 µM
CC(C)N1C(c2ccccc2)c2ccccc2S1(=O)=O,-,p24 / RT activity,-,-,-,3.23 µM
CCc1nnc(C(=O)N[C@@]23CC[C@]4(C)C(CCC5[C@@]6(C)CC[C@H](OC(=O)CC(C)(C)C(=O)O)C(C)(C)C6CC[C@]54C)C2=C(C(C)C)C(=O)C3)o1,MT-2,RT activity,-,30% human serum,IIIB,<0.199 µM
CN1C(c2c(Cl)cccc2Cl)c2ccccc2S1(=O)=O,-,p24 / RT activity,-,-,-,5.09 µM
CC(C)C1=C2C3CCC4[C@@]5(C)CC[C@H](OC(=O)CC(C)(C)C(=O)O)C(C)(C)C5CC[C@@]4(C)[C@]3(C)CC[C@@]2(NC(=O)[C@H]2CCCN2C(=O)OC(C)(C)C)CC1=O,MT-2,RT activity,-,30% human serum,IIIB,<0.199 µM

The last 2 rows once more:

SMILES,cell line,read by,changes,setting,strain,value
CN1C(c2c(Cl)cccc2Cl)c2ccccc2S1(=O)=O,-,p24 / RT activity,-,-,-,5.09 µM
CC(C)C1=C2C3CCC4[C@@]5(C)CC[C@H](OC(=O)CC(C)(C)C(=O)O)C(C)(C)C5CC[C@@]4(C)[C@]3(C)CC[C@@]2(NC(=O)[C@H]2CCCN2C(=O)OC(C)(C)C)CC1=O,MT-2,RT activity,-,30% human serum,IIIB,<0.199 µM

An empty or dashed field is not shown. ECn is the concentration giving n% inhibition of infection, replication or growth.